Measured values from several laboratories, pooled; numbers as filed in NIAID ChemDB.

Common to all: growth or infection tests; species: Influenza B virus; cells: MDCK; endpoint: EC50

Rows are shuffled and stem from different studies. ECn is the concentration giving n% inhibition of infection, replication or growth. An empty or dashed field is not shown.

structure	strain or isolate	method	result
Nc1nc(Cl)cc(NCC2(CCO)CCC2)n1	B/GIFU/2/73	plaque count	>120 µM
C[C@H](CO)[C@@H](OC(N)=O)[C@@H]1OC(C(=O)O)=C[C@H](N)[C@H]1NC(=O)O	Victoria	plaque count	0.02 µg/mL
CCC(CC)[C@H](NC(C)=O)[C@@H]1[C@H](O)[C@@H](C(=O)O)C[C@H]1N=C(N)N	Panama/45/90	-	2.3 µM
CCC(CC)O[C@@H]1C=C(C(=O)O)C[C@H](N)[C@H]1NC(C)=O	B/Harbin/07.94	plaque count	0.091 µM
CCNC1C2CCCC1(C)[C@@H](C)[C@H]2C	-	plaque count	>100 µM
C=C(N=CC)c1nc(-c2ccc(C)cc2)n(C2O[C@H](CO)[C@@H](O)[C@H](O)[C@H]2O)n1	Singapore	cytopathic effect	>200 µg/mL
CC1=C(C)C2(C)CCC(C)(C)C1C2N	-	plaque count	>25 µM
CCC(CC)(CO)CNc1cc(Cl)nc(N)n1	B/GIFU/2/73	plaque count	120 µM
CC1=C(C)C2(C)CCCC1C2N	-	plaque count	12.4 µM
CC=NC(=N)c1nc(-c2ccc(OC)cc2)n(C/C=C/c2ccccc2)n1	Singapore	cytopathic effect	>100 µg/mL
CC1(CO)CCC(Cn2nnc3c(=O)[nH]c(N)nc32)C1(C)C	HONG KONG/5/72	cytopathic effect	>50 µg/mL
CC=NC(=N)c1nc(-c2ccccc2)n(Cc2ccccc2)n1	Singapore	cytopathic effect	>20 µg/mL
Nc1nc(Cl)cc(NCC2(CO)CC(=O)C2)n1	B/GIFU/2/73	plaque count	>120 µM
CC1(CO)CCC(Cn2cnc3c(Cl)nc(N)nc32)C1(C)C	HONG KONG/5/72	cytopathic effect	>50 µg/mL
CCC(CC)[C@H](NC(C)=O)[C@@H]1[C@H](O)[C@@H](C(=O)O)C[C@H]1N=C(N)N	HONG KONG/5/72	-	2.2 µM
CCC1=C(CC)C2(C)CC[C@@H](C(C)C)C1C2N	-	plaque count	>100 µM
C[C@H](CO)[C@@H](OC(=O)NCCSc1ncccn1)[C@@H]1OC(C(=O)O)=C[C@H](N=C(N)N)[C@H]1NC(=O)O	Victoria	plaque count	0.027 µg/mL
C=C(N=CC)c1nc(-c2cccc(C)c2)n(C2O[C@H](CO)[C@@H](O)[C@H](O)[C@H]2O)n1	Singapore	cytopathic effect	>200 µg/mL
N#CNc1nncs1	B/LEE/40	plaque count	1.54 µg/mL
CC1(CO)CCC(Cn2cnc3c(N)nc(N)nc32)C1(C)C	HONG KONG/5/72	cytopathic effect	>50 µg/mL
CC1=C(C)C2C(N)C1CC[C@H]2C(C)C	-	plaque count	~15 µM
C=C(N=CC)c1nc(-c2ccc(OC)cc2)n([C@@H]2O[C@H](CO)[C@@H](O)[C@H]2O)n1	Singapore	cytopathic effect	>200 µg/mL
C/C=C\[C@@H]1C[C@H](C(=O)O)N[C@H]1[C@@H](NC(C)=O)[C@](C)(CCC)OC	Isolate C33D	plaque count	<0.01 µg/mL
CCCNC(=O)O[C@@H]([C@@H]1OC(C(=O)O)=C[C@H](N)[C@H]1NC(=O)O)[C@H](C)CO	Victoria	plaque count	1.1 µg/mL
CC=NC(=N)c1nc(-c2cccc(C)c2)n(COCCO)n1	Singapore	cytopathic effect	>100 µg/mL
C[C@H](CO)[C@@H](OC(N)=O)[C@@H]1OC(C(=O)O)=C[C@H](N=C(N)N)[C@H]1NC(=O)O	Victoria	plaque count	0.002 µg/mL
CC=NC(=N)c1nc(-c2ccc(OC)cc2)n(COCCO)n1	Singapore	cytopathic effect	>200 µg/mL
C[C@H]1CC2CCCC1C2N	-	plaque count	55 µM
Nc1nc(Cl)cc(NCC2(CO)CC(O)C2)n1	B/GIFU/2/73	plaque count	>120 µM
CCCC(CCC)C(NC(C)=O)C1CC(C(=O)O)CC1N=C(N)N	Harbin/07/94	-	0.06 µM
Nc1nc2c(ncn2[C@@H]2O[C@H](CO)[C@@H](O)[C@H]2F)c(=O)[nH]1	B/Singapore/222/79	plaque count	2 µM
CCNC1C2CCCC1[C@@H](C)C2	-	plaque count	61.9 µM
CCCC(CCC)C(NC(C)=O)C1C(N=C(N)N)CC(C(=O)O)C1O	LEE/40	-	8 µM
C=C(N=CC)c1nc(-c2cccc(C)c2)n([C@@H]2O[C@H](CO)[C@@H](O)[C@H]2O)n1	Singapore	cytopathic effect	>100 µg/mL

The last 3 rows once more:

structure | strain or isolate | method | result
CCNC1C2CCCC1[C@@H](C)C2 | - | plaque count | 61.9 µM
CCCC(CCC)C(NC(C)=O)C1C(N=C(N)N)CC(C(=O)O)C1O | LEE/40 | - | 8 µM
C=C(N=CC)c1nc(-c2cccc(C)c2)n([C@@H]2O[C@H](CO)[C@@H](O)[C@H]2O)n1 | Singapore | cytopathic effect | >100 µg/mL